Compound potency records, mixed from different reports. Data source: NIAID ChemDB in PubChem.

Shared fields: growth or infection tests; agent: HIV-1; read by: p24 / antigen; read-out: EC50

Conditions beyond the fields shown may differ between rows. ECn is the concentration giving n% inhibition of infection, replication or growth.

{"smiles": "Cc1cc(=O)oc2c3c(ccc12)S(=O)(=O)[C@H](C)[C@H](OC(=O)[C@@]12CC[C@@](C)(C(=O)O1)C2(C)C)[C@@H]3OC(=O)[C@@]12CC[C@@](C)(C(=O)O1)C2(C)C", "cell line": "H9", "strain": "IIIB", "result": ">100 µg/mL"}
{"smiles": "CCOC(=O)c1cc(C(=O)c2ccccc2)n2ccc(C(=O)N[C@@H](C(=O)OC)c3ccccc3)cc12", "cell line": "H9", "result": "49.5 µM"}
{"smiles": "COc1ccccc1C1CCN(C(=O)c2cc3c([nH]c4ccccc43)c(-c3cccs3)n2)CC1", "cell line": "C8166", "strain": "IIIB", "result": "5.6 µM"}
{"smiles": "CCOC(=O)c1cc(C(=O)N2CCOCC2)n2ccc(C(=O)NCc3ccccn3)cc12", "cell line": "H9", "result": ">500 µM"}
{"smiles": "CC1/C=C/C=C/C=C/C=C/C=C/C=C/C=C/C(OC2OC(C)C(O)C(N)C2O)CC(O)C(C(=O)O)C(O)CC(=O)CC(O)CC(O)CC(O)CC(=O)CCCC(=O)CC(=O)OC1", "cell line": "H9", "strain": "IIIB", "result": ">0.01 µg/mL"}
{"smiles": "Cc1cn(C2CC3C(O)C(C)C3(N=[N+]=[N-])O2)c(=O)[nH]c1=O", "cell line": "H9", "strain": "IIIB", "result": "100 µM"}
{"smiles": "Cc1cn([C@H]2C[C@H](N=[N+]=[N-])[C@@H](COP(=O)(Nc3cc(C(=O)Nc4cc(C(=O)Nc5cc(C(=O)NCCC(=N)N)n(C)c5)n(C)c4)n(C)c3)OC3CCCCC3)O2)c(=O)[nH]c1=O", "cell line": "MT-4", "result": "0.002 µM"}
{"smiles": "O=C(c1cc2c([nH]c3ccccc32)c(-c2cccs2)n1)N1CCC(c2ccccc2F)CC1", "cell line": "C8166", "strain": "IIIB", "result": "35.2 µM"}
{"smiles": "Cc1cn(C2C[C@H](N=[N+]=[N-])[C@@H](COP(=O)(Nc3cc(C(=O)Nc4cc(C(=O)Nc5cc(C(=O)NCCC#N)n(C)c5)n(C)c4)n(C)c3)OC(C)C)O2)c(=O)[nH]c1=O", "cell line": "CEM/TK-", "result": "1.15 µM"}
{"smiles": "Cc1ccc(C)c(NS(=O)(=O)c2cc(C(=O)NCc3ccccn3)ccc2Cl)c1", "cell line": "C8166", "strain": "NL4-3", "result": "0.7 µM"}
{"smiles": "CN(C)c1ccc(Nc2c3ccc(NC(=O)CCN4CCCC4)cc3nc3cc(NC(=O)CCN4CCCC4)ccc23)cc1", "cell line": "PBMC", "strain": "IIIB", "result": "28.3 µM"}
{"smiles": "CCOC(=O)c1cc(C(=O)c2ccccc2)n2ccc(C(=O)NCc3ccc4ccccc4c3)cc12", "cell line": "H9", "result": "20.1 µM"}
{"smiles": "O=C(c1cc2c([nH]c3ccccc32)c(-c2cccs2)n1)N1CCC(c2ccc([N+](=O)[O-])cc2)CC1", "cell line": "C8166", "strain": "IIIB", "result": "7.6 µM"}
{"smiles": "CCOC(=O)c1cc(C(=O)c2ccc([N+](=O)[O-])cc2)n2ccc(C(=O)NCc3ccccn3)cc12", "cell line": "H9", "result": "20.5 µM"}
{"smiles": "CO[C@@H]1[C@@H](OC(=O)c2ccc(C)[nH]2)[C@@H](O)C(Oc2ccc3c(O)c(NC(=O)c4c[nH]c(C(=O)Nc5c(O)c6ccc(OC7OC(C)(C)[C@H](OC)[C@@H](OC(=O)c8ccc(C)[nH]8)[C@H]7O)c(C)c6oc5=O)c4C)c(=O)oc3c2C)OC1(C)C", "cell line": "C8166", "strain": "NL4-3", "result": "0.33 µM"}
{"smiles": "CCOC(=O)c1cc(C(=O)c2ccccc2)n2ccc(C(=O)NCc3ccccn3)cc12", "cell line": "H9", "result": "47 µM"}
{"smiles": "CC(S)C(=O)NCC(=O)O", "cell line": "H9", "result": "400 µg/mL"}
{"smiles": "Cc1cn([C@H]2C=C[C@@H](COP(=O)(Nc3cc(C(=O)Nc4cc(C(=O)Nc5cc(C(=O)NCCC#N)n(C)c5)n(C)c4)n(C)c3)OC(C)C)O2)c(=O)[nH]c1=O", "cell line": "MT-4", "result": "0.16 µM"}
{"smiles": "CCOC(=O)c1cc(C(=O)c2ccco2)n2ccc(C(=O)NCc3ccccn3)cc12", "cell line": "H9", "result": "48.7 µM"}

A second listing of 2 rows from above:

{"smiles": "CCOC(=O)c1cc(C(=O)c2ccc([N+](=O)[O-])cc2)n2ccc(C(=O)NCc3ccccn3)cc12", "cell line": "H9", "result": "20.5 µM"}
{"smiles": "O=C(c1cc2c([nH]c3ccccc32)c(-c2cccs2)n1)N1CCC(c2ccccc2F)CC1", "cell line": "C8166", "strain": "IIIB", "result": "35.2 µM"}